Strings that start with PEPTIDE1 are HELM notation: dots part the residues, brackets hold end groups and non-standard residues.
Assay: peptide made by a vendor (Fmoc solid-phase peptide synthesis; Fmoc-Gly Wang Resin; TBTU, N-methylmorpholine)
Details: whole synthesis, RP-HPLC, scale of the general procedure 0.5 g resin

PEPTIDE1{G.R.F.K.R.L.R.K.K.L.K.K.L.F.K.K.L.S.P.V.I.P.L.L.H.L.G}$$$$V2.0
final purity (method not given): exceeding 95%
